From PMC10869273

target: HA H7 HK17 (A/Hong Kong/125/2017(H7N9)) (influenza A virus A/Hong Kong/125/2017(H7N9)); assay: BLI; conditions: not given

Substance	Kd [nM]
MEDI8852 UCA VH K58S-V65P / VL G95P IgG	5.6

target: HA H4 Hubei (A/swine/Hubei/06/2009(H4N1)) (influenza A virus A/swine/Hubei/06/2009(H4N1)); assay: BLI; conditions: not given

Substance	Kd [nM]
MEDI8852 UCA VH K58S / VL G95P Fab	3100
MEDI8852 UCA VH K58S / VL G95P IgG	36
MEDI8852 UCA VH K58S Fab	2500
MEDI8852 UCA VH K58S-P75R IgG	47
MEDI8852 UCA VH K58S-V65P / VL G95P IgG	30
MEDI8852 UCA VH K58S-V65P-P75R IgG	72
MEDI8852 UCA VH V65P / VL G95P IgG	100
MEDI8852 UCA VH V65P-P75R / VL G95P IgG	110
MEDI8852 UCA VH V65P-P75R IgG	570
MEDI8852 UCA VL G95P Fab	17000
MEDI8852 VH V35Y Fab	0.83
MEDI8852 VH W59S Fab	0.91

target: SARS-CoV-2 Omicron BA.1 receptor-binding domain (RBD); assay: BLI; conditions: apparent Kd of the bivalent IgG

Substance	Kd [nM]
C143 IgG (wild-type) VL:T33N; VL:G53V	160

same assay, conditions: monovalent Fab

Substance	Kd [nM]
REGN10987 Fab (wild-type) VH:R16G; VL:N91C	4500
